Pooled drug test results. Numbers come from NIAID ChemDB, via PubChem.

Common to all: growth or infection tests; organism: Herpes simplex virus 2; measure: EC50

ECn is the concentration giving n% inhibition of infection, replication or growth. Blank or dashed fields: not listed here. Conditions beyond the fields shown may differ between rows.

smiles | method | cells | strain | value
Nc1nc2c(ncn2C/C=C\CO)c(=O)[nH]1 | plaque count | HEL | 91075 | 16 µM
CCCCc1cn([C@@H]2O[C@H](COP(=O)(O)O)[C@@H](O)[C@H]2O)c(=O)nc1N |  |  | LYONS | >400 µg/mL
Nc1cc([C@H]2C[C@H](O)[C@@H](CO)O2)c(F)cc1F | cytopathic effect | E6SM | 196 | >400 µg/mL
CCCCCCc1cn([C@@H]2OC3COP(=O)(O)OC3[C@H]2O)c(=O)nc1N |  |  | 196 | >400 µg/mL
CCCCC(C)(C)[C@H](O)/C=C/[C@H]1C=CC(=O)[C@@H]1CCCCCCC(=O)O | hybridisation | VERO | G | 3.8 µg/mL
CCCCCc1cn([C@@H]2O[C@H](COP(=O)(O)O)[C@@H](O)[C@H]2O)c(=O)nc1N |  |  | LYONS | >400 µg/mL
COc1cc(OC)c(NC(=S)Nc2ccc(NC(=O)c3ccccc3F)cc2Cl)cc1Cl | ELISA | HFF | 186 | 8.9 µg/mL
Cn1cc(C(=O)NCc2ccc(Cl)cc2)c(=O)c2cc(CN3CCOCC3)ccc21 | plaque count | HFF | L6250234 (WILD TYPE) | 6.2 µM
CCc1cn([C@@H]2OC3COP(=O)(O)OC3[C@H]2O)c(=O)nc1N |  |  | LYONS | >400 µg/mL
Nc1nc2c(ncn2COCCO)c(=O)[nH]1 | XTT | VERO | 196 | 1.2 µM
Nc1nc2c(ncn2CC[C@@H](O)CO)c(=O)[nH]1 | plaque count | HEL | 91075 | 5.3 µM
Nc1nc2c(ncn2CC(CO)CCO)c(=O)[nH]1 | plaque count | VERO | 91075 | 5 µM
Cc1cc([C@@H]2C[C@H](O)[C@@H](CO)O2)c(F)cc1F | cytopathic effect | E6SM | G | >400 µg/mL
O=C(NCc1ccc(Cl)cc1)c1cn2c3c(cc(CN4CCOCC4)cc3c1=O)OC(c1cccnc1)C2 | plaque count | HFF | MS (WILD TYPE) | 6 µM
Cc1cc([C@H]2C[C@H](O)[C@@H](CO)O2)c(F)cc1F | cytopathic effect | E6SM | 196 | >400 µg/mL
Nc1nc2c(ncn2COCCO)c(=O)[nH]1 | cytopathic effect | HFF | 14893 KOS (acyclovir-resistant) | 20 µg/mL
CCOC(=O)c1ccc(OCCC2CCN(c3ccc(C)nn3)CC2)cc1 | virus yield | KB | HGP | 0.0023 µM
Cc1cc([C@H]2C[C@H](O)[C@@H](CO)O2)c(Cl)cc1F | cytopathic effect | E6SM | 196 | >400 µg/mL

For reference, 2 entries again:

Cc1cc([C@@H]2C[C@H](O)[C@@H](CO)O2)c(F)cc1F ; method: cytopathic effect ; cells: E6SM ; strain: G ; value: >400 µg/mL
Cc1cc([C@H]2C[C@H](O)[C@@H](CO)O2)c(F)cc1F ; method: cytopathic effect ; cells: E6SM ; strain: 196 ; value: >400 µg/mL